Experimental findings from US5552384A (priority 1990, dated 1996) are described below.

This data set in a line: peptide synthesis.

As to “Boc-Tbg-Asp(pyrrolidino)-Asp(cyPn)(OBzl)-Leu-OBzl”, where the note is “coupling step”, the step yield is 85%.

Turning to “PhCH2 CH2 CO--N-Me-Val-Tbg-Asp(pyrrolidino)-Asp(cyPn)(OBzl)-Leu-OBzl”, the step yield (coupling step) was 90%.

For the substance “PhCH2 CH2 CO--N-Me-Val-Tbg-Asp(pyrrolidino)-Asp(cyPn)-Leu-OH”, the step yield (late stage modification step) was 83%.

“Boc-N-Me-Val-Tbg-Asp(pyrrolidino)-Asp(cyPn)(OBzl)-Leu-OBzl” had a step yield (coupling step) of 86% yield.
